A mixed list of measured activities; the numbers were collected in NIAID ChemDB.

Common to all: growth or infection tests; species: Hepatitis C virus; cell line: Huh7; read-out: EC50

ECn is the concentration giving n% inhibition of infection, replication or growth. Blank or dashed fields: not listed here. Two numbers with a dash give a range or band. Lines come from different laboratories, so protocols vary.

structure,strain or isolate,mutations,read by,result
CNC(=O)c1c(-c2ccc(F)cc2)oc2cc(-c3cc(C)nn3C)c(OC(C)C)cc12,-,-,replicon,<10 µM
CCCc1ccc(S(=O)(=O)Oc2ccccc2/C=N/NC(=O)Cc2ccccc2)cc1,-,-,replicon,<5 µM
CNC(=O)c1c(-c2ccc(F)cc2)oc2cc(N3CCOCC3)c(OC(C)c3nccs3)cc12,-,-,replicon,<1 µM
CN(C)S(=O)(=O)NC(=O)c1ccc2c(C3CCCCC3)c3n(c2c1)CC(C(=O)N1CCCOCC1)=Cc1ccccc1-3,-,-,replicon,0.01–1 µM
COc1c(-c2ccc3cc(NS(C)(=O)=O)ccc3c2)cc(-n2ccc(=O)[nH]c2=O)cc1C(C)(C)C,genotype 1b Con1,Y448C,luciferase,0.244 µM
COC(=O)c1ccc2c(C3CCCCC3)c3n(c2c1)CC(C(=O)OCc1ccccc1)=Cc1ccccc1-3,-,-,replicon,1–10 µM
C=CCOc1cc2c(C(=O)NC)c(-c3ccc(F)cc3)oc2cc1N(CC=C)S(C)(=O)=O,-,-,replicon,<1 µM
O=C(O)c1ccc2c(C3CCCCC3)c3n(c2c1)CC(C(=O)N1CCOCC1)=Cc1ccncc1-3,-,-,replicon,1–10 µM
COc1ccc(CC(=O)N/N=C/c2ccccc2N(C)S(=O)(=O)c2ccc(C(F)(F)F)cc2)cc1OC,-,-,replicon,<5 µM
C[C@@H](NC(=O)OCc1ccccc1)C(=O)Nc1ccc(C2SC(=Nc3ccc(N4CCOCC4)cc3)N(c3ccccn3)C2=O)cc1,-,-,replicon,0.1–1 µM
O=C(O)/C=C/c1ccc(NC(=O)C2(NC(=O)c3ccc4c(C5CCCCC5)c5n(c4c3)CCCc3nccnc3-5)CCCC2)cc1,-,-,replicon,0.01–1 µM
O=C(Cc1cccc(Cl)c1)N/N=C/c1c(Cl)cccc1OS(=O)(=O)c1ccc(C(F)(F)F)cc1,-,-,replicon,<5 µM
CNC(=O)c1c(-c2ccc(F)cc2)oc2ccc(C)cc12,-,-,replicon,<10 µM
C/[N+](=C\c1ccccc1OS(=O)(=O)c1ccc(C(F)(F)F)cc1)NC(=O)Cc1ccccc1,-,-,replicon,>50 µM
CNC(=O)c1c(-c2ccc(F)cc2)oc2cc(N(CS(C)(=O)=O)c3ccncc3)c(OC)cc12,-,-,replicon,<1 µM
CC(C)(C)OC(=O)N1CC(O)Cn2c(c(C3CCCCC3)c3ccc(C(=O)O)cc32)-c2ccccc21,-,-,replicon,1–10 µM
O=C(Nc1ccc(C2SC(=Nc3cccc(Cl)c3)N(Cc3ccco3)C2=O)cc1)[C@H]1CCCN1C(=O)OCc1ccccc1,-,-,replicon,0.1–1 µM
COC(=O)c1ccc2c(c1)CCN(S(=O)(=O)NC(=O)c1ccc3c(C4CCCCC4)c4n(c3c1)CC(=O)Nc1ccccc1-4)C2,-,-,replicon,1–10 µM
CNC(=O)c1c(-c2ccc(F)cc2)oc2cc(NS(C)(=O)=O)c(C3CC3)cc12,-,-,replicon,<1 µM
COc1ccc(C(=O)N2CCC[C@@H]2C(=O)Nc2ccc(C3SC(=Nc4cccc(F)c4)N(Cc4ccco4)C3=O)cc2)cc1OC,-,-,replicon,0.1–1 µM
CNC(=O)c1c(-c2ccc(F)cc2)oc2cc(-c3cc(C4CC4)on3)c(OC(C)C)cc12,-,-,replicon,<1 µM
CN(c1ccccc1/C=N/NC(=O)c1cc(Cl)ccc1Cl)S(=O)(=O)c1ccc(C(F)(F)F)cc1,-,-,replicon,>50 µM
O=C(O)/C=C/c1ccc(NC(=O)C2(NC(=O)c3ccc4c(C5CCCCC5)c5n(c4c3)C[C@@H](O)[C@@H](O)c3ccccc3-5)CCCC2)cc1,-,-,replicon,0.01–1 µM
CNC(=O)c1c(-c2ccc(F)cc2)oc2cc(-c3ccc(F)nc3)c(OC(C)C)cc12,-,-,replicon,<10 µM
C[C@@H](NC(=O)OCc1ccccc1)C(=O)Nc1cccc(C2SC(=Nc3cccc(F)c3)N(Cc3ccco3)C2=O)c1,-,-,replicon,1–5 µM

Again, the opening 2 rows:

structure	strain or isolate	mutations	read by	result
CNC(=O)c1c(-c2ccc(F)cc2)oc2cc(-c3cc(C)nn3C)c(OC(C)C)cc12	-	-	replicon	<10 µM
CCCc1ccc(S(=O)(=O)Oc2ccccc2/C=N/NC(=O)Cc2ccccc2)cc1	-	-	replicon	<5 µM